ChEMBL document CHEMBL3352527, “Phosphorus-nitrogen compounds. Part 29. Syntheses, crystal structures, spectroscopic and stereogenic properties, electrochemical investigations, antituberculosis, antimicrobial and cytotoxic activities and DNA interactions of ansa-spiro-ansa cyclotetraphosphazenes” (2014)
Active and inactive are the calls of the source. The rule behind the calls is not given here.

Tests used:
Pseudomonas aeruginosa = assay: Antimicrobial activity against Pseudomonas aeruginosa ATCC 27853 after 18 hrs by agar well diffusion assay
Escherichia coli = assay: Binding affinity to Escherichia coli pBR322 plasmid DNA assessed as reduction in mobility of form-1 DNA at 312 to 5000 uM after 24 hrs by agarose gel electrophoresis

**Q.** For `ClP1(Cl)=NP(Cl)(Cl)=NP(Cl)(Cl)=NP(Cl)(Cl)=N1`, which inhibition zone (IZ) (Pseudomonas aeruginosa) is on record?
**A.** The inhibition zone (IZ) was 9.7 mm.

**Q.** And the Activity (Escherichia coli)?
**A.** Its Activity is “Active”.
